# Zika virus NS2B-NS3: effect of single substitutions on growth in cell culture

Source: Ni et al. 2025 (doi:10.1038/s41467-025-63602-z), supplementary data.

Protein: NS2B and the protease part of NS3 of Zika virus strain MR766. Positions count along the chain below; NS2B spans 2-131 and NS3 starts at 132.
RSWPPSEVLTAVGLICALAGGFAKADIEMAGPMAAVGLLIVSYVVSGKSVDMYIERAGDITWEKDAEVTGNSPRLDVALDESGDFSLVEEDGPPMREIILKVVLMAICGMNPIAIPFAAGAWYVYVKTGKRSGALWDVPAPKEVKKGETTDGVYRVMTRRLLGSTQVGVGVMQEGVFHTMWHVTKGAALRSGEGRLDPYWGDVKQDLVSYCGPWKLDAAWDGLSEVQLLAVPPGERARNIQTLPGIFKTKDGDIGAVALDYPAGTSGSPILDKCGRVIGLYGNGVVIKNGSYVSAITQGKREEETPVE

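Pools of virus carrying all single amino acid changes were selected for growth in Huh-7.5 cells. The effect is the change in frequency of a mutant, normalised to wild type, as a mean of three replicate libraries (two for positions 207-308). The aim was to find sites where inhibitor-binding pockets cannot change.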

Values are log2 effects on growth: 0 is wild type, lower means poorer growth.
A change reads original residue, position, new residue.
The region was split into three libraries (1-103, 104-206, 207-308).
Values above 0 are not proof of better growth: six high scorers were tested one by one, five grew less well than wild type and one about as well.
Stop codons (*) centre on -7 and mark the level of dead virus.
The authors count -1 or higher as tolerated. Position 1 is the last residue of NS2A.

{"mutation": "K127H", "effect (log2)": -5.91}
{"mutation": "Q298H", "effect (log2)": -6.61}
{"mutation": "A263Y", "effect (log2)": -5.58}
{"mutation": "G20F", "effect (log2)": -6.49}
{"mutation": "I99M", "effect (log2)": -0.39}
{"mutation": "A119R", "effect (log2)": -7.02}
{"mutation": "D197C", "effect (log2)": -0.89}
{"mutation": "S72Y", "effect (log2)": -5.94}
{"mutation": "G192L", "effect (log2)": -4.77}
{"mutation": "L216S", "effect (log2)": -8.41}
{"mutation": "G120A", "effect (log2)": -1.14}
{"mutation": "Y53T", "effect (log2)": -4.87}
{"mutation": "L38C", "effect (log2)": -2.30}
{"mutation": "K24W", "effect (log2)": -5.84}
{"mutation": "E304A", "effect (log2)": -0.74}
{"mutation": "G147F", "effect (log2)": -1.60}
{"mutation": "R159*", "effect (log2)": -7.16}
{"mutation": "C108Q", "effect (log2)": -5.87}
{"mutation": "G70S", "effect (log2)": -7.54}
{"mutation": "R276C", "effect (log2)": -1.97}
{"mutation": "P141S", "effect (log2)": -6.19}
{"mutation": "D272V", "effect (log2)": -4.63}
{"mutation": "R1N", "effect (log2)": -7.17}
{"mutation": "P198Q", "effect (log2)": -3.54}
{"mutation": "A35W", "effect (log2)": -5.47}
{"mutation": "K185Y", "effect (log2)": -5.37}
{"mutation": "S164W", "effect (log2)": -4.09}
{"mutation": "V226*", "effect (log2)": -6.87}
{"mutation": "Y125F", "effect (log2)": -0.90}
{"mutation": "K142Q", "effect (log2)": -1.90}
{"mutation": "D151K", "effect (log2)": -5.77}
{"mutation": "V286S", "effect (log2)": -6.41}
{"mutation": "R159I", "effect (log2)": -4.57}
{"mutation": "V208L", "effect (log2)": -1.58}
{"mutation": "K64W", "effect (log2)": -1.19}
{"mutation": "V257R", "effect (log2)": -5.84}
{"mutation": "G284F", "effect (log2)": -4.74}
{"mutation": "P4W", "effect (log2)": -4.24}
{"mutation": "G109T", "effect (log2)": -6.45}
{"mutation": "D206*", "effect (log2)": -8.58}
{"mutation": "A119S", "effect (log2)": -0.88}
{"mutation": "D221Y", "effect (log2)": -6.82}
{"mutation": "G168M", "effect (log2)": -5.07}
{"mutation": "E193K", "effect (log2)": -2.15}
{"mutation": "E63S", "effect (log2)": -6.17}
{"mutation": "V257Q", "effect (log2)": -4.03}
{"mutation": "S49Y", "effect (log2)": -4.27}
{"mutation": "W62*", "effect (log2)": -8.43}
{"mutation": "A78G", "effect (log2)": -7.57}
{"mutation": "G31T", "effect (log2)": -6.64}
{"mutation": "G129*", "effect (log2)": -6.68}
{"mutation": "T265S", "effect (log2)": 0.37}
{"mutation": "V36K", "effect (log2)": -5.92}
{"mutation": "P244E", "effect (log2)": -4.55}
{"mutation": "T249Q", "effect (log2)": -5.10}
{"mutation": "P5T", "effect (log2)": -2.99}
{"mutation": "P32N", "effect (log2)": -5.34}
{"mutation": "K273V", "effect (log2)": -1.13}
{"mutation": "Y210W", "effect (log2)": -6.59}

Extract of 3 entries:

mutation,effect (log2)
A35W,-5.47
G168M,-5.07
V36K,-5.92